Earlier results as cited in patent US20220273637A1, “NOVEL PFAR-INHIBITING COMPOUNDS” (UNIVERSITE DE BRETAGNE OCCIDENTALE (UBO), priority 2019, published 2022).

System: PrP^Sc
Conditions: value from the literature; cited from earlier work

For `CCN(CC)CCCC(C)Nc1c2ccc(Cl)cc2nc2ccc(OC)cc12` (stereo not shown), which IC50 is on record?
Its IC50 is 300 nM.
